From patent publication US20050004011A1, “Compositions and methods for treating bacterial infections with protein-dalbavancin complexes” (priority 2002, published 2005) come the findings set out here.

For this data set, the system named is N,N′-diacetyl-Lys-D-Ala-D-Ala. Kind of data set: ITC of binding to tri-peptide, with and without HSA.

Turning to `CN[C@H]1C(=O)N[C@@H]2Cc3ccc(cc3)Oc3cc4cc(c3O[C@@H]3O[C@H](C(=O)O)[C@@H](O)[C@H](O)[C@H]3NC(=O)CCCCCCCCC(C)C)Oc3ccc(cc3Cl)[C@@H](O)[C@@H]3NC(=O)[C@H](NC(=O)[C@@H]4NC(=O)[C@@H](NC2=O)c2cc(cc(O)c2Cl)Oc2cc1ccc2O)c1ccc(O)c(c1)-c1c(O[C@H]2O[C@H](CO)[C@@H](O)[C@H](O)[C@@H]2O)cc(O)cc1[C@@H](C(=O)NCCCN(C)C)NC3=O` [Dalbavancin], the ΔH by setting is: (T 25 ° C., [HSA] 34.2 μM) -20.00 kcal/mol; (T 25 ° C., [HSA] 104 μM) -18.60 kcal/mol; (T 25 ° C., [HSA] 288 μM) -21.05 kcal/mol; (T 25 ° C., [HSA] 430 μM) -19.50 kcal/mol; (T 37 ° C., [HSA] 516 μM) -26.60 kcal/mol. The ΔS runs as follows: (T 25 ° C., [HSA] 104 μM) −41.70 eu; (T 25 ° C., [HSA] 288 μM) −50.00 eu; (T 25 ° C., [HSA] 430 μM) −44.90 eu; (T 37 ° C., [HSA] 516 μM) −67.60 eu.
